# Experimental data as given in ChEMBL document CHEMBL5154878, “Potent Inhibition of SARS-CoV-2 nsp14 N7-Methyltransferase by Sulfonamide-Based Bisubstrate Analogues” (J Med Chem, 2022).
# Molecular target: Replicase polyprotein 1ab (Severe acute respiratory syndrome coronavirus 2) (UniProt P0DTD1)
# Assay: Inhibition of N7-MTase activity of SARS-CoV-2 N-terminus hexahistidine tag nsp14 expressed in Escherichia coli C2566 at 5 uM using [3H]SAM as substrate incubated for 30 mins in presence of mGpppAC4 synthetic RNA by filter binding assay relative to control
smiles,measurement,value
Nc1ncnc2c1ncn2[C@@H]1O[C@H](C[C@@H](N)CC[C@H](N)C(=O)O)[C@@H](O)[C@H]1O,inhibition,100%
